Test results published in article PMC2751766 (Journal of acquired immune deficiency syndromes (1999), 2009).
Where two headings read alike, the source gives them in different places.

Key:
[1] = format: in vivo, human; conditions: for AUCτ: τ = 12 hours; for AUCτ ratio Day 1 CVF:BP: day 1, single dose; for AUCτ ratio Day 7 CVF:BP: day 7, multiple dose
[2] = CVF protein binding by rapid equilibrium dialysis of pooled day 7 CVF samples; format: in vitro ADME, human
[3] = Safety and tolerability in healthy HIV-negative female volunteers; format: in vivo, human; conditions: maraviroc 300 mg orally twice daily, 7 days
[4] = BP, day 7, 300 mg orally twice daily, n = 10, median (interquartile range)
[5] = CVF, day 7, 300 mg orally twice daily, n = 10, median (interquartile range)
[6] = VT, day 7, 300 mg orally twice daily, composite profile
[7] = median (interquartile range), listed as Maraviroc

## maraviroc
[1]; BP, 1 hour after the first dose (day 1)
  Women with detectable BP concentrations: 12 of 12
[1]; BP, day 1, single 300 mg oral dose, n = 12, median (interquartile range)
  Cmax: 503 (401–714) ng/mL
[1]; BP, day 1, single 300 mg oral dose, n = 12, median (range)
  Tmax: 2 (1–3) h
[1]; [4]
  Cmax: 563 (537–846) ng/mL
  AUCτ: 2515 (2188–2783) ng·h/mL
[1]; BP, day 7, 300 mg orally twice daily, n = 10, median (range)
  Tmax: 3 (1–4) h
[1]; BP, day 7 vs day 1 AUCτ
  Accumulation in BP over 7 days of dosing: 26%
[1]; CVF, 1 hour after a single dose
  Median protein-free CVF concentration relative to 0.5 ng/mL: 10 fold
[1]; CVF, 1 hour after dosing
  Women in whom CVF concentrations were observed: 50%
[1]; CVF, 1 hour after the first dose (day 1)
  Women with detectable CVF concentrations: 6 of 12
[1]; CVF, 2 hours after dosing
  Women in whom CVF concentrations were observed: 100%
[1]; CVF, at Cmin under steady state conditions
  Median protein-free CVF concentration relative to 0.5 ng/mL: > 800 fold
[1]; CVF, by 2 hours after the first dose (day 1)
  Women with detectable CVF concentrations: 12 of 12
[1]; CVF, day 1, single 300 mg oral dose, n = 12, median (interquartile range)
  Cmax: 694 (291–1283) ng/mL
[1]; CVF, day 1, single 300 mg oral dose, n = 12, median (range)
  Tmax: 6 (4–12) h
[1]; [5]
  Cmax: 1230 (409–1810) ng/mL
  AUCτ: 7500 (3078–9090) ng·h/mL
[1]; CVF, day 7, 300 mg orally twice daily, n = 10, median (range)
  Tmax: 6 (0–12) h
[1]; [6]
  Tmax: 4 h
  AUCτ: 4857 ng·h/g
[1]; accumulation in BP, median (interquartile range)
  AUCτ ratio Day 7:Day 1 (BP): 1.26 (1.16–1.30)
[1]; accumulation in CVF, median (interquartile range)
  AUCτ ratio Day 7:Day 1 (CVF): 2.13 (1.16–2.59)
[1]; after the final dose on day 7, terminal elimination
  CVF concentrations 72 hours after dose compared with BP concentrations 12 hours after dose: similar
[1]; day 1, after the first dose
  Time by which median CVF concentrations surpassed BP concentrations: ≤ 4 h
[1]; median (interquartile range)
  AUCτ ratio Day 1 CVF:BP: 1.9
  AUCτ ratio Day 7 CVF:BP: 2.7
[1]; [7]
  AUCτ ratio Day 1 CVF:BP: 1.91 (0.82–4.77)
  AUCτ ratio Day 7 CVF:BP: 2.73 (1.0–5.39)
[1]; day 7
  Delay of Tmax in CVF compared with BP: 3 h
[1]; day 7, AUCτ
  VT exposure as percentage of the CVF exposure: approximately 65%
[1]; day 7, composite VT AUCτ
  AUCτ ratio Day 7 VT:CVF: 0.65
[1]; day 7, composite VT AUCτ divided by median BP AUCτ
  AUCτ ratio Day 7 VT:BP: 1.9
[1]; end of the 12-hour dosing interval after 7 days of dosing
  CVF concentrations relative to BP: approximately 10 times
[2]; CVF vs BP
  Protein binding in CVF, fold lower than BP: approximately 10 fold
[2]; pooled day 7 CVF samples at or close to Cmax, 4 pooled samples, 37°C, 16 hours
  CVF protein binding (mean): 7.6%
[3]; 12-lead EKG
  EKG abnormalities related to administration: No EKG abnormalities
[3]
  Serious adverse events: no serious AEs reported
[3]; 12 subjects
  Adverse event frequency: fatigue: 25%
  Adverse event frequency: headache: 17%
  Adverse event frequency: nausea: 17%
